Anti-infective test results gathered from many reports (values: NIAID ChemDB through PubChem).

Shared fields: tests in culture; agent: Mycobacterium tuberculosis

A number after MIC or MFC names an inhibition level or a share of isolates.

compound | changes | cell line | setting | strain | measure | dose | method | value
CSC(=S)N/N=C(\C)c1cccc(C)n1 |  |  |  | H37Rv | MIC bound |  | BACTEC | ≤128 µg/mL
O=C(/C=C/c1ccccc1)c1cccc(I)c1O |  |  |  | H37Rv | MIC |  |  | >12.5 µg/mL
CCCCCCCOc1ccccc1NC(=O)OCCN1CCCCCC1 |  |  |  | My 331/88 | MIC |  |  | 16 µM
COc1ccc(/C=C/C(=O)c2ccccn2)cc1 |  |  |  | H37Rv | MIC |  |  | >12.5 µg/mL
C[C@H](NCCNC(c1ccccc1)c1ccccc1)C1CCCCC1 |  |  |  |  | MIC |  |  | 50 µM
CCCCN(CCCC)CCNc1ccc(C)c2sc3c(Cl)cccc3c(=O)c12 |  | VERO |  | H37Rv | MIC |  | BACTEC | 1.6 µg/mL
C[C@@H]1[C@@H](NCCNC(c2ccccc2)c2ccccc2)C[C@H]2C[C@@H]1C2(C)C |  |  |  |  | MIC |  |  | 50 µM
C[C@H]1COc2c(N3CCN(C)CC3)c(F)cc3c(=O)c(C(=O)O)cn1c23 |  |  |  | Strain 32 | MIC |  |  | 0.125 µg/mL
CCCNCCNC[C@H](C)O |  |  |  |  | MIC |  |  | 50 µM
COc1cccc(NC(=O)OCCN2CCOCC2)c1 |  |  |  | My 331/88 | MIC |  |  | 1000 µM
NCC[C@H](O)C(=O)N[C@@H]1C[C@H](N)[C@@H](O[C@H]2O[C@H](CN)[C@@H](O)[C@H](O)[C@H]2O)[C@H](O)[C@H]1O[C@H]1O[C@H](CO)[C@@H](O)[C@H](N)[C@H]1O |  |  |  | MDR21 | MIC |  | broth dilution / resazurin | 1 µg/mL
CCc1ccc(C(=O)N/N=C(\C)[C@]2(O)Cc3c(O)c4c(c(O)c3[C@H](O[C@H]3C[C@H](N)[C@H](O)[C@H](C)O3)C2)C(=O)c2c(OC)cccc2C4=O)cc1 |  |  |  | KM-R | MIC |  |  | 12.5 µg/mL
O=C(O)c1cn(C2CC2)c2c(F)c(N3CCSCC3)c(F)cc2c1=O |  |  |  | Erdman | MIC |  |  | 0.5 µg/mL
Fc1ccccc1CNCCNCCc1ccc(Cl)cc1Cl |  |  |  |  | MIC |  |  | 50 µM
CC(=O)NC[C@H]1CN(c2ccc(N3CCOCC3)c(F)c2)C(=O)O1 | INH resistant |  |  | Clinical isolate BRF 14 | MIC |  | resazurin | 0.25 µg/mL
CCCCn1c(-c2ccc(Br)cc2)cs/c1=N\NC(=O)COc1cnccn1 |  |  |  | H37Rv | MIC |  |  | 19 µg/mL
c1cc2c(s1)CCOC21CCN(Cc2ccc3c(c2)OCCO3)CC1 | MmpL3: Ser591Ile |  |  | H37Rv | fold resistance |  | fluorescence | ≥33.3
CC(CNC[C@@H]1CC[C@H]2C[C@@H]1C2(C)C)N[C@H]1C[C@H]2C[C@@H]([C@@H]1C)C2(C)C |  |  |  |  | MIC |  |  | 25 µM
C/C(=N/NC(=O)c1ccccc1Cl)c1ccccc1 |  |  |  |  | MIC |  |  | 10 µg/mL
OCc1ccccc1Sc1ccccc1CNCCNCc1ccc2c(c1)OCO2 |  |  |  |  | MIC |  |  | 50 µM
CN(C)CCc1c2c(nc3ccccc13)C(=O)c1cccnc1C2=O |  |  |  | H37Rv | MIC |  | resazurin | 6.25 µg/mL
NNC(=O)c1ccncc1 |  |  |  | CSU23 | MIC |  |  | ≤0.125 µg/mL
COc1ccc(-c2oc3ccc(Cl)cc3c(=O)c2O)cc1 |  |  |  | H37Rv | MIC |  |  | >12.5 µg/mL
O=C(NNC(=O)c1ccccc1Cl)c1ccccc1Cl |  |  |  |  | MIC |  |  | >200 µg/mL
CO[C@H]1/C=C/O[C@@]2(C)Oc3c(C)c(O)c4c(=O)c(c5oc6cc(N7CCN(CC(C)C)CC7)cc(=O)c6nc5c4c3=C2O)NC(=O)/C(C)=C\C=C\[C@H](C)[C@H](O)[C@@H](C)[C@@H](O)[C@@H](C)[C@H](OC(C)=O)[C@@H]1C |  |  | inside macrophages | H37Rv | inhibition | 10 µg/mL |  | 98.8%
O=C(/C=C/c1ccccc1)c1cc(Br)ccc1O |  |  |  | H37Rv | inhibition | 12.5 µg/mL |  | 68%
CC(CNCCC(c1ccccc1)c1ccccc1)NCC12CC3CC(CC(C3)C1)C2 |  |  |  |  | MIC |  |  | 6.25 µM
CCOC(=O)c1c(C)c(C(=O)CC)c(C)n1C(=O)c1ccccc1 |  |  |  | H37Rv | inhibition | 6.25 µg/mL | resazurin | -2%
CC[C@H]1OC(=O)[C@H](C)[C@@H](O[C@H]2C[C@@](C)(OC)[C@@H](O)[C@H](C)O2)[C@H](C)[C@@H](O[C@@H]2O[C@H](C)C[C@H](N(C)C)[C@H]2O)[C@](C)(OC)C[C@@H](C)C(=O)[C@H](C)[C@@H](O)[C@]1(C)O |  |  |  | 101596 | MIC |  |  | >4 µg/mL
CCOCCCNCCNC[C@]1(C)CCC[C@]2(C)c3ccc(C(C)C)cc3CC[C@@H]12 |  |  |  |  | MIC |  |  | 25 µM
CCOC(=O)C1=C(C)N(Cc2ccccc2)C2(O)C1=CC(=O)C(Cl)=C2Cl |  |  |  | H37Rv | inhibition | 6.25 µg/mL | BACTEC | 0%
NNC(=O)c1ccncc1 |  |  |  | Strain 328 | MIC |  |  | 8 µg/mL
COc1ccc(NC(=O)CC/C(CC(=O)C(C)(C)C)=N\NC(=O)C(=O)NN)cc1 |  |  |  | H37Rv | inhibition | 12.5 µg/mL | BACTEC | 7%
O=C(NNC(=O)c1ccc(Cl)cc1)c1ccc(Cl)cc1 |  |  |  |  | MIC |  |  | >200 µg/mL
CCCNCC(=O)Nc1ccc(C)c(Cl)c1 |  |  |  | H37Rv | MIC |  | BACTEC | 12.5 µg/mL
CCCCOc1ccc(NC(=O)OCCN2CCCCC2)cc1 |  |  |  | My 331/88 | MIC |  |  | 125 µM
CN[C@@H]1[C@H](O[C@H]2[C@H](O[C@H]3[C@H](O)[C@@H](O)[C@H](N=C(N)N)[C@@H](O)[C@@H]3N=C(N)N)O[C@@H](C)[C@]2(O)C=O)O[C@@H](CO)[C@H](O)[C@H]1O |  |  |  | 84396 | MIC |  |  | ≥2 µg/mL
NC(=O)c1cnccn1 |  |  |  | M4597/NIACIN+ | MIC |  |  | 64 µg/mL
CC(=O)Nc1cccc(/C=C/C(=O)c2ccccc2O)c1 |  |  |  | H37Rv | MIC |  |  | >12.5 µg/mL
NCC[C@H](O)C(=O)N[C@@H]1C[C@H](N)[C@@H](O[C@H]2O[C@H](CN)[C@@H](O)[C@H](O)[C@H]2O)[C@H](O)[C@H]1O[C@H]1O[C@H](CO)[C@@H](O)[C@H](N)[C@H]1O |  |  |  | TN3187 (W1) | MIC |  |  | >256 µg/mL
CC(=O)NS(=O)(=O)c1ccc(N=NC2C(=O)N(C(=O)c3cccnc3)N=C2C)cc1 |  |  |  | H37Rv | MIC |  | BACTEC | ≥12.8 µg/mL
CCc1nc2ccccc2n1CCCCSc1ccccc1 | WT |  |  | H37Rv | MIC90 |  | turbidity / fluorescence | 20 µM
O=C(NNS(=O)(=O)c1ccc(Cl)c(Cl)c1)c1ccccc1 |  |  |  |  | MIC |  |  | >200 µg/mL
CN(C)CCCN1c2ccccc2Sc2ccc(Cl)cc21 |  |  |  | Isolate E (drug-resistant) | MIC |  |  | 20 µg/mL
CC(=O)Nc1ccc(/C=N/NC(=O)c2ccccc2Cl)cc1 |  |  |  |  | MIC |  |  | 100 µg/mL
COc1ccc(CCn2c(C)nc3ccc(C)cc3c2=O)cc1OC |  |  |  | H37Rv | inhibition | 12.5 µg/mL | BACTEC | -13%
CCCCCCCCCOc1ccccc1NC(=O)OCCN1CCCCC1 |  |  |  | My 331/88 | MIC |  |  | 16 µM
Cc1ccc(NCCN(C)C)c2c(=O)c3cccc(O)c3sc12 |  |  |  | H37Rv | inhibition | 12.5 µg/mL | BACTEC | 94%
O=C(N/N=C/c1ccc(Cl)cc1)c1ccccc1Cl |  |  |  |  | MIC |  |  | 100 µg/mL
C1CCCC(NCCNC2C3CC4CC(C3)CC2C4)CCC1 |  |  |  |  | MIC |  |  | 25 µM
CC1CN(c2c(F)cc3c(=O)c(C(=O)O)cn(C4CC4)c3c2F)CCN1 |  |  |  | CSU27 | MIC |  |  | ≤0.125 µg/mL
CCOC(=O)c1cnc2c(ccc3ncccc32)c1OCC |  |  |  | H37Rv | inhibition | 12.5 µg/mL | BACTEC | -6%
CC(=O)NNS(=O)(=O)c1ccc(NC(C)=O)cc1 |  |  |  |  | MIC |  |  | >200 µg/mL
NNC(=O)c1ccncc1 |  |  |  | H37Rv | MIC |  |  | 0.125 µg/mL
CCCCC(CC)CN1CN(CC(CC)CCCC)CC(C)(NCCNCCc2ccc(OC)c(OC)c2)C1 |  |  |  |  | MIC |  |  | 6.25 µM
CCCCCCCOc1ccccc1NC(=O)OCCN1CCCCC1 |  |  |  | My 331/88 | MIC |  |  | 32 µM
c1ccc2c(c1)NC(c1nc3ccccc3s1)S2 |  |  |  | H37Rv | MIC |  |  | 50 µg/mL
CCCCCOc1cccc(NC(=O)OCCN(C)C)c1 |  |  |  | My 331/88 | MIC |  |  | 62.5 µM
CCCCC(CC)CN1CN(CC(CC)CCCC)CC(C)(NCCNCCCOCC)C1 |  |  |  |  | MIC |  |  | 12.5 µM
O=c1cc(-c2ccccc2)oc2c(I)cccc12 |  |  |  | H37Rv | MIC |  |  | >12.5 µg/mL
COc1cc(C(=O)NC(N)=O)cc(OC)c1OC |  |  |  | H37Rv | MIC bound |  | BACTEC | >12.5 µg/mL
c1ccc(C2Nc3ccccc3S2)nc1 |  |  |  | H37Rv | MIC |  |  | 2.2 µg/mL
CCOc1ccc(N2C(=O)CS/C2=N\NC(=O)COc2cnccn2)cc1 |  |  |  | H37Rv | MIC |  |  | 175 µg/mL
c1ccc(CCCCNCCNCC(c2ccccc2)c2ccccc2)cc1 |  |  |  |  | MIC |  |  | 6.25 µM
CCN(CCNc1ccc(C)c2sc3ccccc3c(=O)c12)CC(C)(C)O |  | VERO |  | H37Rv | MIC |  | BACTEC | 6.25 µg/mL
CCCCCCCOc1ccccc1NC(=O)OCCN1CCOCC1 |  |  |  | My 331/88 | MIC |  |  | 62.5 µM
O=c1c(O)c(-c2cccc(Br)c2)oc2ccccc12 |  |  |  | H37Rv | MIC |  |  | >12.5 µg/mL
CCCCN1C(=O)CS/C1=N\NC(=O)COc1cnccn1 |  |  |  | H37Rv | MIC |  |  | 156 µg/mL
CCc1nc2ccc(C)cc2n1CCCSc1ccc(OC)cc1 | QcrB M342T |  |  | H37Rv | fold resistance |  | turbidity / fluorescence | 21
O=[N+]([O-])c1ccc(N=Nc2c(Cl)c(O)c3ccccc3c2O)nc1 |  |  |  | H37Rv | MIC bound |  | BACTEC | >12.5 µg/mL
NNC(=O)c1ccccc1O |  |  |  |  | MIC |  |  | >200 µg/mL
CCc1nc2ccccc2n1CCCCOc1cccc(C)c1 | Rv1339 V90M |  |  | H37Rv | fold resistance |  | turbidity / fluorescence | 6.7
CCCCOc1ccccc1NC(=O)OCCN1CCCCC1 |  |  |  | My 331/88 | MIC |  |  | 250 µM
COc1ccc2c(c1O)-c1cc(O)cc3c1C(C2)N(C)CC3.Cl |  |  |  | H37Rv | inhibition | 12.8 µg/mL | BACTEC | 16%
Nc1cccc(/C=C/C(=O)c2ccccc2O)c1 |  |  |  | H37Rv | MIC |  |  | >12.5 µg/mL
C[C@H](NCCNC(c1ccccc1)c1ccccc1)C1CCCCC1 |  |  |  |  | MIC |  |  | 50 µM
Cc1cccnc1C1Nc2ccccc2S1 |  |  |  | H37Rv | MIC |  |  | 3.1 µg/mL
CC(CNCCNCCc1ccc(F)cc1)c1ccccc1 |  |  |  |  | MIC |  |  | 50 µM
CC(C)=CCC/C(C)=C/CNCCNCCc1ccc(Cl)cc1Cl |  |  |  |  | MIC |  |  | 50 µM
CCC1=CC2CN3CCc4c([nH]c5ccccc45)C(C(=O)OC)(C2)C13 |  |  |  | H37Rv | inhibition | 12.5 µg/mL | BACTEC | 5%
COc1ccc(CCNCCNCc2ccc(OC)cc2OC)cc1 |  |  |  |  | MIC |  |  | 12.5 µM
N[C@@H](Cn1ccc(=O)c(O)c1)C(=O)O |  |  |  | H37Rv | inhibition | 12.8 µg/mL | BACTEC | 8%
CN1c2ccccc2SC1c1ccccn1 |  |  |  | H37Rv | MIC |  |  | 12.5 µg/mL
NNC(=O)Cc1ccc(Cl)cc1 |  |  |  |  | MIC |  |  | 200 µg/mL
CCc1nc2ccccc2n1CCCCOc1ccccc1Cl | QcrB M342T |  |  | H37Rv | fold resistance |  | turbidity / fluorescence | 11
O=C(COc1cnccn1)N/N=c1\scc(-c2ccc(Br)cc2)n1-c1ccc(Cl)cc1 |  |  |  | H37Rv | MIC |  |  | 16 µg/mL
NC(=O)c1cnccn1 |  |  |  | Isolate 10348 monodrug-resistant | MIC |  |  | >300 µg/mL
COc1cc(OC)c2c(=O)cc(-c3cc(OC)c(OC)c(OC)c3)oc2c1 |  |  |  | H37Rv | MIC |  |  | >12.5 µg/mL
Cc1cc(S(=O)(=O)Nc2nc(N)nc(N(C)C)n2)c(S)cc1Cl |  |  |  | H37Rv | MIC bound |  | BACTEC | >12.5 µg/mL
CCOc1ccccc1CNCCNC1Cc2ccccc2C1 |  |  |  |  | MIC |  |  | 50 µM
[N-]=[N+]=Nc1nn2cnnc2c2[nH]c3ccccc3c12 |  |  |  | H37Rv | inhibition | 6.25 µg/mL | resazurin | 35%
C[C@H]1COc2c(N3CCN(C)CC3)c(F)cc3c(=O)c(C(=O)O)cn1c23 |  |  |  | Strain 24 | MIC |  |  | 0.125 µg/mL

Inhibition is in % at the dose shown (toxicity tests: loss of growth or viability). Fold resistance: result on the changed form divided by that on wild type. An empty or dashed field is not shown. MIC bound: limit read from a one-dose screen. Neighbouring rows are from separate reports.